{"sequences": {"note": "Amino acid sequences for entries named in this document (tags omitted).", "UniProt O55017, whole entry": "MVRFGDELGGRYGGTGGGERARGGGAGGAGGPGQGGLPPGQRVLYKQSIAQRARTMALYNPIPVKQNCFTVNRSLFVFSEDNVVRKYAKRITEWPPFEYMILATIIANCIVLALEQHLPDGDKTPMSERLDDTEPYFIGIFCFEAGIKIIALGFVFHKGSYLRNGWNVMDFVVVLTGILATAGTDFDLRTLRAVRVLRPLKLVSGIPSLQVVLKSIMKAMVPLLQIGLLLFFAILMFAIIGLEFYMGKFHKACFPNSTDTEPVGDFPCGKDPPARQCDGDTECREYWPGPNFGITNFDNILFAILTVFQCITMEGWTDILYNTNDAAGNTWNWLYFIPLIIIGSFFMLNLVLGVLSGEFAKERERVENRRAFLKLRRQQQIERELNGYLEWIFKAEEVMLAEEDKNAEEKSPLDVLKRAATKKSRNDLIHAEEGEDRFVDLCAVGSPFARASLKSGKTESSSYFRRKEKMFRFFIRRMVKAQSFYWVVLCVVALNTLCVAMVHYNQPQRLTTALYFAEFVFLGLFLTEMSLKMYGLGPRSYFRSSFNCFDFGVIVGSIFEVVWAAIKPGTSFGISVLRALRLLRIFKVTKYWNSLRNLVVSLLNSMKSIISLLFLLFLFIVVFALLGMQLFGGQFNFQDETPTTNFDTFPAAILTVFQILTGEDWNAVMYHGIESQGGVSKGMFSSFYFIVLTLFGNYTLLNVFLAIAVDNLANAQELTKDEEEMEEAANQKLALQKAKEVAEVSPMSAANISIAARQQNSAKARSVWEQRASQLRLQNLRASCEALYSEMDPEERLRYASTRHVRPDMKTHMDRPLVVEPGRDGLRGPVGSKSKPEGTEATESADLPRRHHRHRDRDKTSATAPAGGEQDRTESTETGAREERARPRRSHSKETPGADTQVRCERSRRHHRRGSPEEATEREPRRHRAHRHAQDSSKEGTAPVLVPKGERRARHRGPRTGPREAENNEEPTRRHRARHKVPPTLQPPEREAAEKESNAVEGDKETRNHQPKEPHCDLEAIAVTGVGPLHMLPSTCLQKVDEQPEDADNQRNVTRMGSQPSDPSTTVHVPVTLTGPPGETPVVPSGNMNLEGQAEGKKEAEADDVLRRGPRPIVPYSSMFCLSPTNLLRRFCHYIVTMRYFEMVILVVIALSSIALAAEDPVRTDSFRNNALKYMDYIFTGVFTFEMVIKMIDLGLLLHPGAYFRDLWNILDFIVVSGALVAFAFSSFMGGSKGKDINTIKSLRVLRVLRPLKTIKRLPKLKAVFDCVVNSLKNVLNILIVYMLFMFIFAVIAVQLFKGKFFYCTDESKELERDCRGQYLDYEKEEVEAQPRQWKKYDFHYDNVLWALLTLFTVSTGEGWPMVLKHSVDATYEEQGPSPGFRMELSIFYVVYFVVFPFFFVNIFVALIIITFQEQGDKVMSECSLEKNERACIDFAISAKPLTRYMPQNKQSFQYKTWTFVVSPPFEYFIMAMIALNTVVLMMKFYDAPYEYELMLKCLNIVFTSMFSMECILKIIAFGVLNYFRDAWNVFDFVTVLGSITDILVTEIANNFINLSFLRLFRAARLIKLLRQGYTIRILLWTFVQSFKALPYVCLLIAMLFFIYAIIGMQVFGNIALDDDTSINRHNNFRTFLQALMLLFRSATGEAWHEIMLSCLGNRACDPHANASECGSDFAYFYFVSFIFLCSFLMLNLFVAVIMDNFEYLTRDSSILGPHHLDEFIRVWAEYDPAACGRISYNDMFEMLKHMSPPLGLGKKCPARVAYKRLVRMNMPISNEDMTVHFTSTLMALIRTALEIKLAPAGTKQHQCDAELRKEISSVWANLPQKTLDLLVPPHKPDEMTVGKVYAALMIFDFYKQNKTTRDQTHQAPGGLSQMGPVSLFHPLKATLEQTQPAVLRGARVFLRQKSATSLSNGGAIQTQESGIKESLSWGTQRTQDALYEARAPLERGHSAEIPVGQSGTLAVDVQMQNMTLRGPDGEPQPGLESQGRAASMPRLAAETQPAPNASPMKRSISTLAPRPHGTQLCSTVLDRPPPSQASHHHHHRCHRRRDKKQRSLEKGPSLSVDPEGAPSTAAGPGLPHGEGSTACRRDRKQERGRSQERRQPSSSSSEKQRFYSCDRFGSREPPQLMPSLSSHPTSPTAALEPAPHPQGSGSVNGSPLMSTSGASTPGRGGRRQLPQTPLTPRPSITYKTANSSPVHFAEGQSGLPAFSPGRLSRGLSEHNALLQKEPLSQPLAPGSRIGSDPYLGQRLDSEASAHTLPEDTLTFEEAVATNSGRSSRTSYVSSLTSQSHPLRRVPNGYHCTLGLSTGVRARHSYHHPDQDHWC"}, "source": "patent US9636379B2", "about": "“Compositions and methods for treating pruritus” (Washington University, priority 2007, dated 2017)", "key": {"N-type calcium channel [1]": {"molecular_target": "N-type calcium channel (Homo sapiens, UniProt Q00975)", "settings": "in vivo; cited from earlier work"}, "N-type calcium channel [2]": {"molecular_target": "T1, N-type calcium channel (Mus musculus, UniProt O55017)", "T1 construct": "Presynaptic calcium channels have been implicated in the release of neuropeptides from primary afferent fibers; endogenous in cells; host or cells: living mice, primary afferent terminals / spinal cord (intrathecal co-injection with morphine)", "design": "species or system mice", "settings": "in vivo"}}}
{"substance": "ω-Conotoxin GVIA", "values": [{"measurement": "antinociceptive effect", "setting": "N-type calcium channel [1]", "value": "has been reported to have an antinociceptive effect"}, {"measurement": "effect on antinociceptive effect of morphine", "setting": "N-type calcium channel [1]", "value": "potentiate the antinociceptive effect of morphine"}, {"measurement": "scratching induced by morphine", "setting": "N-type calcium channel [2]", "value": "significantly inhibited"}]}
